Test results as given in patent US20240124553A1.

Legend:
[1] = biological target: SINV-WEEV (CBA87) chimeric virus (western equine encephalitis virus)
[2] = biological target: SINV-WEEV (CBA87) chimeric virus (western equine encephalitis virus); remark: listed apart in the source

Substance | neutralisation of SINV-WEEV infection; IC50 (read off the curve) [1] | neutralisation of SINV-WEEV infection; IC50 (read off the curve) [2]
duck MXRA8-Fc (Fc fusion) | 6 µg/mL | 7 µg/mL
Du-D1-Mo-D2 MXRA8-Fc (chimeric duck D1 - mouse D2 MXRA8, duck stalk) (from UniProt Q9DBV4 23-65; Q9DBV4 195-293) (Fc fusion) | 0.4 µg/mL | 

Like-named read-outs stand apart in the source and are kept apart here.
